The text below walks through data of publication PMC2912389 (2010).

This experiment concerns the target NA (neuraminidase) of A/Denmark/524/09 (H1N1) (Influenza A virus (A/California/04/2009(H1N1)), UniProt C3W5S3). To be noted: substrate MUNANA, mean ± SD of five measurements.

Like-named read-outs stand apart in the source and are kept apart here.

Take `CCC(CC)O[C@@H]1C=C(C(=O)O)C[C@H](N)[C@H]1NC(C)=O` [oseltamivir carboxylate, [3R, 4R, 5S]-4-acetamido-5-amino-3-[1-ethylpropoxy]-1-cyclohexene-1-carboxylic acid]: the IC50 (read-out: NA enzyme inhibition IC50 ±SD ^b (nM) / Oseltamivir carboxylate) is 5 ± 0.8 nM.
For the molecule `CC(=O)N[C@H]1[C@H]([C@H](O)[C@H](O)CO)OC(C(=O)O)=C[C@@H]1N=C(N)N` [zanamivir, 4-guanidino-Neu5Ac2en], the IC50 (read-out: NA enzyme inhibition IC50 ±SD ^b (nM) / Zanamivir) was found to be 1.3 ± 0.15 nM.
